A mixed list of measured activities; the numbers were collected in NIAID ChemDB.

ICn: concentration for n% inhibition. ECn is the concentration giving n% inhibition of infection, replication or growth. Blank or dashed fields: not listed here. CCn: concentration that lowers growth or viability of the cells by n%. MIC bound comes from a single tested concentration. Lines come from different laboratories, so protocols vary. Zone: diameter of growth inhibition. Inhibition is in % at the dose shown (toxicity tests: loss of growth or viability).

O=[N+]([O-])c1ccc(S(=O)(=O)c2ccc([N+](=O)[O-])cc2[N+](=O)[O-])c([N+](=O)[O-])c1 ; test: target ; species: HIV-2 ; protein: Integrase ; read by: 3′ processing ; endpoint: IC50 ; value: 77 µM
[N-]=[N+]=NC[C@@H](O)[C@@H](O)[C@H](O)[C@H](O)CN=[N+]=[N-] ; test: culture ; species: Mycobacterium tuberculosis ; strain: H37Rv (ATCC 27294) ; endpoint: MIC ; value: >100 µg/mL
O=[N+]([O-])c1ccc(Cn2nnc(-c3cc([N+](=O)[O-])cc([N+](=O)[O-])c3)n2)cc1 ; test: culture ; species: Mycobacterium kansasii ; strain: My 235/80 ; conditions: 21 d ; endpoint: MIC ; value: 2 µM
Nc1cc([As]=O)ccc1O ; test: toxicity ; cell line: MT-2 ; endpoint: CC50 ; value: 0.45 µg/mL
O=[N+]([O-])c1cc2nc(Cl)[nH]c2cc1[N+](=O)[O-] ; test: culture ; species: Mycobacterium tuberculosis ; strain: H37Rv ; read by: resazurin ; endpoint: MIC bound ; value: >6.25 µg/mL
Cc1cn(C2CC(OP(=O)(O)OCC3OC(n4cnc5c(=O)[nH]c(N)nc54)CC3OP(=O)(O)OCC3OC(n4cnc5c(=O)[nH]c(N)nc54)CC3OP(C)(=O)OCC3OC(n4cnc5c(=O)[nH]c(N)nc54)CC3OP(C)(=O)OCC3OC(n4cnc5c(N)ncnc54)CC3OP(C)(=O)OCC3OC(n4cnc5c(=O)[nH]c(N)nc54)CC3O)C(COCc3ccc(OCc4ccccc4)c(OCc4ccccc4)c3)O2)c(=O)[nH]c1=O ; test: culture ; species: HIV-1 ; cell line: MT-4 ; read by: cytopathic effect / MTT ; endpoint: EC50 ; value: 39 µg/mL
CN1C(=O)N(C)P12(Cl)N(C)C(=O)N2C ; test: culture ; species: Mycobacterium tuberculosis ; strain: H37Rv ; read by: BACTEC ; endpoint: MIC ; value: ≥12.5 µg/mL
C(/C=C/c1ccccc1)=NCCNCCN=C/C=C/c1ccccc1.[N-]=[N+]=[N][Hg][N]=[N+]=[N-] ; test: culture ; species: Aspergillus niger ; read by: agar diffusion ; endpoint: zone ; dose: 30000 µg/mL ; value: 39 mm
O=P1(c2ccccc2)Nc2ncnc(Cl)c2N1 ; test: culture ; species: Mycobacterium tuberculosis ; strain: H37Rv ; read by: BACTEC ; endpoint: MIC bound ; value: >12.5 µg/mL
COc1cccc(Nc2c([N+](=O)[O-])cc([N+](=O)[O-])cc2[N+](=O)[O-])c1 ; test: target ; species: Pneumocystis carinii ; protein: DHFR ; endpoint: IC50 ; value: 100 µM
NC(=NCCC[C@H](N)C(=O)O)NP(=O)(O)O ; test: toxicity ; cell line: HeLa ; endpoint: CC50 ; value: >200 µg/mL
O=[N+]([O-])c1ccc(-n2cc([N+](=O)[O-])cn2)c([N+](=O)[O-])c1 ; test: toxicity ; cell line: VERO ; endpoint: CC50 ; value: 0.4 µg/mL
CCN(CC)CCOC(=O)C(O)(c1ccccc1)c1ccco1 ; test: culture ; species: Mycobacterium tuberculosis ; strain: H37Rv ; endpoint: MIC bound ; value: >6.25 µg/mL
Cc1nc([N+](=O)[O-])cn1-c1cn(-c2ccc([N+](=O)[O-])cc2[N+](=O)[O-])c(=O)[nH]c1=O ; test: culture ; species: Mycobacterium tuberculosis ; endpoint: inhibition ; dose: 6.25 µg/mL ; value: <90%
O=C1OCCN1[N+](=O)[O-] ; test: culture ; species: Mycobacterium tuberculosis ; strain: H37Rv ; read by: BACTEC ; endpoint: MIC bound ; value: ≤12.5 µg/mL
O=[As]c1ccccc1 ; test: culture ; species: HIV-1 ; strain: BaL ; cell line: Macrophage + Monocytes/macrophages ; read by: p24 ; conditions: 14 d ; endpoint: EC50 ; value: ~10 µM
CCc1cn([C@H]2C[C@H](O)[C@@H](COP(=O)(O)F)S2)c(=O)[nH]c1=O ; test: toxicity ; cell line: VERO ; endpoint: CC50 ; value: >1300 µM
O=[N+]([O-])c1cccc2c1no[n+]2[O-] ; test: toxicity ; cell line: VERO ; endpoint: CC50 ; value: 0.42 µg/mL

A second listing of 2 rows from above:

| structure | test | species | strain | cell line | protein | read by | conditions | endpoint | dose | value |
|---|---|---|---|---|---|---|---|---|---|---|
| O=[N+]([O-])c1ccc(S(=O)(=O)c2ccc([N+](=O)[O-])cc2[N+](=O)[O-])c([N+](=O)[O-])c1 | target | HIV-2 | - | - | Integrase | 3′ processing | - | IC50 | - | 77 µM |
| CN1C(=O)N(C)P12(Cl)N(C)C(=O)N2C | culture | Mycobacterium tuberculosis | H37Rv | - | - | BACTEC | - | MIC | - | ≥12.5 µg/mL |